Measured values from several laboratories, pooled; numbers as filed in NIAID ChemDB.

Common to all: target-level tests; species: HIV-1; protein: Reverse transcriptase

Fold resistance has wild type as its base. Percent inhibition refers to the dose given; in toxicity tests it is the harm to the cells. ICn: concentration for n% inhibition. a–b is a range or a potency band. Conditions beyond the fields shown may differ between rows. Blank or dashed fields: not listed here.

{"compound": "Cc1nnc2ccc(N3CCc4ccccc4C3)nn12", "endpoint": "IC90", "strain or isolate": "98US_MSC5016", "method": "RT activity / fluorescence", "result": "48.9 µM"}
{"compound": "Cc1ccc2c(c1)N(C(C)C)C(=O)c1ccnnc1O2", "endpoint": "inhibition", "method": "ELISA", "tested at": "330 µM", "result": "88%"}
{"compound": "CNCCOC(=O)COC(C)(C)C#Cc1ccc(NC(=O)CSc2nnnn2-c2ccc(C(C)(C)C)cc2Cl)c(Cl)c1", "endpoint": "IC50", "strain or isolate": "WT", "method": "PicoGreen / fluorescence", "result": "<1 µM"}
{"compound": "CCN1c2ncc(CCOc3ccc(-n4nc(C(=O)O)cc4C)cc3C)cc2C(=O)N(C)c2cccnc21", "endpoint": "IC50", "strain or isolate": "IIIB", "method": "nucleotide incorporation / radiometric", "result": "<0.05 µM"}
{"compound": "Cc1c(Cc2ccccc2)nc(SCCCCO)[nH]c1=O", "endpoint": "Ki", "result": "70 µM"}
{"compound": "c1ccc2c(c1)CCN(c1nn3c(-c4ccsc4)nnc3c3ccccc13)C2", "endpoint": "IC50", "strain or isolate": "98US_MSC5016", "method": "RT activity / fluorescence", "result": "17.4 µM"}
{"compound": "O=C1NC(c2c[nH]c3ccc(O)cc23)=C/C1=C1\\C(=O)NC2C=CC=CC12", "endpoint": "inhibition", "method": "RT activity / ELISA", "tested at": "50 µM", "result": "8.75%"}
{"compound": "O=C(O)Cc1ccc(-c2ccc(NC(=O)CSc3nnnn3-c3cc4ccccc4cc3Cl)c(Cl)c2)cc1", "endpoint": "IC50", "changes": "RT-K103 Y181C", "method": "PicoGreen / fluorescence", "result": "<1 µM"}
{"compound": "CCN1c2ncc(CCOc3ccc(-c4cc(C)[n+]([O-])c(C)c4)cc3C)cc2C(=O)N(C)c2cccnc21", "endpoint": "IC50", "strain or isolate": "IIIB", "method": "nucleotide incorporation / radiometric", "result": "<0.05 µM"}
{"compound": "CC(C)(NC(=O)c1ccc(NC(=O)CSc2nnnn2-c2ccc(C3CC3)cc2Cl)c(Cl)c1)C(=O)O", "endpoint": "IC50", "changes": "RT-K103 Y181C", "method": "PicoGreen / fluorescence", "result": "<1 µM"}
{"compound": "CCCN1C(=O)c2cc(Cl)nnc2Oc2ccc(OC)cc21", "endpoint": "inhibition", "method": "ELISA", "tested at": "33 µM", "result": "23%"}
{"compound": "CC(C)(C#Cc1ccc(NC(=O)CSc2nnnn2-c2ccc(C(C)(C)C)cc2Cl)c(Cl)c1)OCC(=O)Nc1ccc(C(=O)O)cc1", "endpoint": "IC50", "changes": "RT-K103 Y181C", "method": "PicoGreen / fluorescence", "result": "<1 µM"}
{"compound": "CCOC(=O)CN1C(=O)c2ccnnc2Oc2ccc(OC)cc21", "endpoint": "inhibition", "method": "ELISA", "tested at": "330 µM", "result": "29%"}
{"compound": "N#Cc1ccc2c(c1)CN(c1nn3c(C4CC4)nnc3c3ccccc13)CC2", "endpoint": "IC90", "strain or isolate": "KER2008", "method": "RT activity / fluorescence", "result": "2.99 µM"}
{"compound": "Cc1ccc(-n2nnnc2SCC(=O)Nc2ccc(-c3csc(N)n3)cc2Cl)c(Cl)c1", "endpoint": "IC50", "changes": "RT-K103 Y181C", "method": "PicoGreen / fluorescence", "result": "<1 µM"}
{"compound": "CCN1c2ncc(CCOc3ccc(-c4cc(C)ccn4)cc3C)cc2C(=O)N(C)c2cccnc21", "endpoint": "IC50", "strain or isolate": "IIIB", "method": "nucleotide incorporation / radiometric", "result": "<0.05 µM"}
{"compound": "CN1CCN(S(=O)(=O)c2ccc(NC(=O)CSc3nnnn3-c3ccc(C4CC4)cc3Cl)c(Cl)c2)CC1", "endpoint": "IC50", "changes": "RT-K103 Y181C", "method": "PicoGreen / fluorescence", "result": "<1 µM"}
{"compound": "CCN1c2ncc(CCOc3ccc(CC(=O)O)c4ccccc34)cc2C(=O)N(C)c2ccc(C)nc21", "endpoint": "fold resistance", "changes": "RT-V106A", "method": "nucleotide incorporation / radiometric", "result": ">10"}
{"compound": "O=C(CSc1nnnn1-c1ccc(C2CC2)cc1Cl)Nc1ccc(-c2ccc(OCCN3CCS(=O)(=O)CC3)cc2)c(F)c1Cl", "endpoint": "IC50", "strain or isolate": "WT", "method": "PicoGreen / fluorescence", "result": "<1 µM"}
{"compound": "CCc1cc(CCc2nc3ccccc3o2)c(=O)[nH]c1C", "endpoint": "fold resistance", "changes": "RT-Y181I", "method": "nucleotide incorporation", "result": ">7600"}
{"compound": "CCN1c2ncc(CCOc3ccc(-c4csc(C(=O)O)c4)cc3C)cc2C(=O)N(C)c2cccnc21", "endpoint": "fold resistance", "strain or isolate": "IIIB", "changes": "RT-K103N Y181C", "method": "nucleotide incorporation / radiometric", "result": "1"}
{"compound": "CN(C)CC(=O)NC(C)(C)C#Cc1ccc(NC(=O)CSc2nnnn2-c2ccc(C3CC3)cc2Cl)c(Cl)c1F", "endpoint": "IC50", "changes": "RT-K103 Y181C", "method": "PicoGreen / fluorescence", "result": "<1 µM"}
{"compound": "CCN1c2ncc(CCOc3ccc(CC(=O)NN)c4ccccc34)cc2C(=O)N(C)c2cccnc21", "endpoint": "fold resistance", "changes": "RT-K103N Y181C", "method": "nucleotide incorporation / radiometric", "result": "1"}
{"compound": "Cc1nnc2c3ccccc3c(N3CCC4CCCCC4C3)nn12", "endpoint": "IC90", "strain or isolate": "KER2008", "method": "RT activity / fluorescence", "result": "58.2 µM"}
{"compound": "CCN1C(=O)c2ccnnc2Oc2ccc(C)cc21", "endpoint": "inhibition", "method": "ELISA", "tested at": "330 µM", "result": "61%"}
{"compound": "Nc1cc2c(cc1F)CN(c1nn3c(C4CC4)nnc3c3ccccc13)CC2", "endpoint": "IC90", "strain or isolate": "IIIB", "method": "RT activity / fluorescence", "result": "3.1 µM"}
{"compound": "CC(C)(C#Cc1ccc(NC(=O)CSc2nnnn2-c2cc(C(F)(F)F)ccc2Cl)c(Cl)c1)C(=O)O", "endpoint": "IC50", "strain or isolate": "WT", "method": "PicoGreen / fluorescence", "result": "<1 µM"}
{"compound": "CCN1c2ncc(CCOc3ccc(C(=O)N=c4ccccn4O)cc3C)cc2C(=O)Nc2c(C)ccnc21", "endpoint": "IC50", "strain or isolate": "IIIB", "method": "nucleotide incorporation / radiometric", "result": "<0.05 µM"}
{"compound": "CCN1c2ncc(CCOc3ccc(CCC(=O)O)c4ccccc34)cc2C(=O)N(C)c2ccc(F)nc21", "endpoint": "fold resistance", "changes": "RT-V106A", "method": "nucleotide incorporation / radiometric", "result": ">10"}
{"compound": "c1ccc2c(c1)CN(c1nn3c(C4CC4)nnc3c3ccccc13)C2", "endpoint": "IC90", "strain or isolate": "KER2008", "method": "RT activity / fluorescence", "result": ">100 µM"}
{"compound": "C=C1c2cc(CCOc3ccc(NS(C)(=O)=O)c4ccccc34)cnc2N(CC)c2ncccc2N1C", "endpoint": "fold resistance", "changes": "RT-Y188L", "method": "nucleotide incorporation / radiometric", "result": ">10"}
{"compound": "NCCCCNc1nc(Cc2ccccc2)cc(=O)[nH]1", "endpoint": "Ki", "changes": "RT-Y188L", "result": ">1000 µM"}
{"compound": "CC(C)(C)c1ccc(-n2nnnc2SCC(=O)Nc2ccc(S(=O)(=O)NCC(=O)O)cc2Cl)c(Cl)c1", "endpoint": "IC50", "strain or isolate": "WT", "method": "PicoGreen / fluorescence", "result": "<1 µM"}
{"compound": "CCN1c2ncc(CCOc3ccc(/C=C(\\C)C(=O)O)c4ccccc34)cc2C(=O)Nc2c(C)cc(Cl)nc21", "endpoint": "fold resistance", "changes": "RT-K103N Y181C", "method": "nucleotide incorporation / radiometric", "result": "1–10"}
{"compound": "CC(C)(C#Cc1ccc(NC(=O)CSc2nnnn2-c2ccc(C(C)(C)C)cc2Cl)c(Cl)c1)C(=O)O", "endpoint": "IC50", "strain or isolate": "WT", "method": "PicoGreen / fluorescence", "result": "<1 µM"}
{"compound": "O=c1cc(Cc2ccccc2)nc(SCCCCO)[nH]1", "endpoint": "Ki", "changes": "RT-V106A", "result": "157 µM"}
{"compound": "Cc1ccc(-n2nnnc2SCC(=O)Nc2ccc(-c3ccc(CC(N)=O)cc3)cc2Cl)c(Cl)c1", "endpoint": "IC50", "changes": "RT-K103 Y181C", "method": "PicoGreen / fluorescence", "result": "<1 µM"}
{"compound": "CCN1c2ncc(CCOc3ccc(-c4ccc(CC(=O)O)cc4)cc3C)cc2C(=O)Nc2c(C)ccnc21", "endpoint": "IC50", "strain or isolate": "IIIB", "method": "nucleotide incorporation / radiometric", "result": "<0.05 µM"}
{"compound": "CC(C)(C)c1ccc(-n2nnnc2SCC(=O)Nc2ccc(C(=O)Nc3ccc(O)cc3)cc2Cl)c(Cl)c1", "endpoint": "IC50", "changes": "RT-K103 Y181C", "method": "PicoGreen / fluorescence", "result": "<1 µM"}
{"compound": "O=[N+]([O-])c1ccc2c(c1)CN(c1nn3c(C(F)F)nnc3c3ccccc13)CC2", "endpoint": "IC90", "strain or isolate": "KER2008", "method": "RT activity / fluorescence", "result": "14.5 µM"}
{"compound": "CN(C)CCCNC(=O)C(C)(C)C#Cc1ccc(NC(=O)CSc2nnnn2-c2ccc(C3CC3)cc2Cl)c(Cl)c1", "endpoint": "IC50", "strain or isolate": "WT", "method": "PicoGreen / fluorescence", "result": "<1 µM"}
{"compound": "CCN1c2ncc(CCOc3ccc(-c4nn[nH]n4)cc3C)cc2C(=O)N(C)c2cccnc21", "endpoint": "IC50", "strain or isolate": "IIIB", "changes": "RT-K103N Y181C", "method": "nucleotide incorporation / radiometric", "result": ">0.1 µM"}
{"compound": "CC(C)(C)c1ccc(-n2nnnc2SCC(=O)Nc2ccc(NC(=O)Cc3cc[n+]([O-])cc3)cc2Cl)c(Cl)c1", "endpoint": "IC50", "strain or isolate": "WT", "method": "PicoGreen / fluorescence", "result": "<1 µM"}
{"compound": "FC(F)(F)c1cccc2c1CCN(c1nn3c(C4CC4)nnc3c3ccccc13)C2", "endpoint": "IC90", "strain or isolate": "98US_MSC5016", "method": "RT activity / fluorescence", "result": "46.5 µM"}
{"compound": "CCN1c2ncc(CCOc3ccc(C(=O)O)c4c3CCCC4)cc2C(=O)N(C)c2ccc(C)nc21", "endpoint": "fold resistance", "changes": "RT-Y188L", "method": "nucleotide incorporation / radiometric", "result": "1–10"}

The last 5 rows once more:

compound,endpoint,strain or isolate,changes,method,tested at,result
CN(C)CCCNC(=O)C(C)(C)C#Cc1ccc(NC(=O)CSc2nnnn2-c2ccc(C3CC3)cc2Cl)c(Cl)c1,IC50,WT,,PicoGreen / fluorescence,,<1 µM
CCN1c2ncc(CCOc3ccc(-c4nn[nH]n4)cc3C)cc2C(=O)N(C)c2cccnc21,IC50,IIIB,RT-K103N Y181C,nucleotide incorporation / radiometric,,>0.1 µM
CC(C)(C)c1ccc(-n2nnnc2SCC(=O)Nc2ccc(NC(=O)Cc3cc[n+]([O-])cc3)cc2Cl)c(Cl)c1,IC50,WT,,PicoGreen / fluorescence,,<1 µM
FC(F)(F)c1cccc2c1CCN(c1nn3c(C4CC4)nnc3c3ccccc13)C2,IC90,98US_MSC5016,,RT activity / fluorescence,,46.5 µM
CCN1c2ncc(CCOc3ccc(C(=O)O)c4c3CCCC4)cc2C(=O)N(C)c2ccc(C)nc21,fold resistance,,RT-Y188L,nucleotide incorporation / radiometric,,1–10